# Laboratory results reported in ChEMBL document CHEMBL3259792 (Eur J Med Chem, 2014).
# Columns and labels:
# [1] = target: Human immunodeficiency virus type 1 reverse transcriptase (Human immunodeficiency virus 1, UniProt Q72547); test: Inhibition of HIV1 wild-type reverse transcriptase Y181I/Y181C mutant using [3H]dTTP by scintillation counting
# [2] = target: Human immunodeficiency virus type 1 reverse transcriptase (Human immunodeficiency virus 1, UniProt Q72547, L100I); test: Inhibition of HIV1 wild-type reverse transcriptase L100I mutant using [3H]dTTP by scintillation counting
# [3] = target: Human immunodeficiency virus type 1 reverse transcriptase (Human immunodeficiency virus 1, UniProt Q72547, V106A); test: Inhibition of HIV1 wild-type reverse transcriptase V106A mutant using [3H]dTTP by scintillation counting
smiles,measurement,setting,value
Cc1cc(C#N)cc(C)c1Oc1nc(Nc2ccc(C#N)cc2)nc(N)c1Br [ETRAVIRINE],IC50,[1],164 nM
same,IC50,[2],12 nM
same,IC50,[3],10 nM
